Results of unrelated studies side by side (data: NIAID ChemDB).

Shared fields: whole-cell or culture tests

Lines come from different laboratories, so protocols vary.

SMILES | cell line | agent | strain | method | measure | dose | result
CCCCC/C=C\C/C=C\C/C=C\C/C=C\CCCC(=O)O | HeLa | Herpes simplex virus 1 | KOS | cytopathic effect | EC50 |  | >200 µg/mL
C#Cc1c(C(N)=O)ncn1[C@@H]1O[C@H](CO)[C@@H](O)[C@H]1O | HeLa | Respiratory syncytial virus | TYPE 3/FM-58-8 | plaque count | EC50 |  | 0.09 µg/mL
Nc1ccc(S(=O)(=O)Nc2ncccn2)cc1 | MRC-5 fibroblasts | Encephalitozoon cuniculi |  | cytopathic effect | EC50 |  | >50 µg/mL
CC(=O)OC1C=COC=C2C[C@@]34SC(=S)S[C@]5(CC6=COC=CC(OC(C)=O)C6N5C3=O)C(=O)N4C21 | HeLa | Coxsackie virus | TYPE A21 |  | EC50 |  | 18 µg/mL
CN1CCN(c2c(F)cc3c(=O)c(C(=O)O)cn4c3c2SCC4)CC1 |  | Haemophilus influenzae | 44 strains |  | MIC50 |  | 0.5 µg/mL
O=c1cnn([C@@H]2O[C@H](CO)[C@@H](O)[C@H]2O)c(=O)[nH]1 | VERO | West Nile virus | New York isolates | cytopathic effect | EC50 |  | 1.6 µg/mL
C[C@H](Cc1ccc(O)c(O)c1)[C@@H](C)Cc1ccc(O)c(O)c1 |  | Candida kefyr | CCC 123-2000 | broth dilution | MIC50 |  | 125 µg/mL
Nc1nc2c(ncn2[C@H]2CO[C@@H](CO)O2)c(=O)[nH]1 | LMH | Duck hepatitis B virus | WILD TYPE |  | EC50 |  | 4.4 µM
C[C@@H]1[C@H](O)[C@@H](C)/C=C/C=C/C=C/C=C/C=C/C=C/C=C/[C@H](OC2O[C@@H](C)[C@H](O)[C@@H](N)[C@H]2O)C[C@@H]2OC(O)(C[C@@H](O)C[C@@H](O)[C@H](O)CC[C@@H](O)C[C@@H](O)CC(=O)C[C@H]1C)C[C@H](O)[C@H]2C(=O)O |  | Candida glabrata | MTCC 3019 |  | MIC |  | 300 µg/mL
COc1ccc(OC)c(Cc2cnc3nc(N)nc(N)c3c2C)c1 | MRC-5 fibroblasts | Encephalitozoon cuniculi |  | cytopathic effect | inhibition | 5 µg/mL | 0%
CN[C@@H]1[C@H](O[C@H]2[C@H](O[C@H]3[C@H](O)[C@@H](O)[C@H](N=C(N)N)[C@@H](O)[C@@H]3N=C(N)N)O[C@@H](C)[C@]2(O)C=O)O[C@@H](CO)[C@H](O)[C@H]1O |  | Klebsiella pneumoniae |  | agar diffusion | zone | 250 µg/disc | 20 mm
CCOC(=O)OC1C=COC=C2C[C@@]34SS[C@]5(CC6=COC=CC(O)C6N5C3=O)C(=O)N4C21 | HeLa | Coxsackie virus | TYPE A21 |  | EC50 |  | 0.0002 µg/mL
CC1(C)S[C@@H]2[C@H](NC(=O)[C@H](N)c3ccc(O)cc3)C(=O)N2[C@H]1C(=O)O |  | Haemophilus influenzae | 44 strains |  | MIC90 |  | >128 µg/mL
CO[C@@H]1[C@H](O)[C@@H](COP(=O)(O)OP(=O)(O)OP(=O)(O)O)O[C@H]1n1ccc(N)nc1=O | HepG2-T5B | Hepatitis C virus |  | MTT | inhibition | 30 µg/mL | 51.83%
CCCCCCCCCCCCCCCC(=O)O | HeLa | Herpes simplex virus 1 | KOS | cytopathic effect | EC50 |  | >200 µg/mL
Cc1cn([C@H]2O[C@@H](CO)[C@H](O)[C@H]2F)c(=O)[nH]c1=O | Huh7 | Duck hepatitis B virus | WILD TYPE |  | EC50 |  | 40 µM
C[C@@]1(O)[C@H](O)[C@@H](CO)O[C@H]1c1coc2c(N)ncnc12 | HepG2-T5B | Hepatitis C virus |  | MTT | inhibition | 10 µg/mL | 0%
CS[C@@]12CC3=COC=CC(OC(C)=O)C3N1C(=O)[C@]1(SC)CC3=COC=CC(OC(C)=O)C3N1C2=O | HeLa | Coxsackie virus | TYPE A21 |  | EC50 |  | 1 µg/mL
Nc1nc(=O)n([C@@H]2CS[C@H](CO)O2)cc1F | LMH | Duck hepatitis B virus | WILD TYPE |  | EC50 |  | 10.5 µM
CCC12C=CCN3CC[C@@]4(c5ccc(OC)cc5N(C)[C@H]4[C@@](O)(C(=O)OC)[C@@H]1OC(C)=O)[C@@H]32 | HeLa | Herpes simplex virus 1 | KOS | cytopathic effect | EC50 |  | >200 µg/mL
O=C1N2C3C(=COC=CC3O)C[C@]23SSSS[C@]12CC1=COC=CC(O)C1N2C3=O | HeLa | Coxsackie virus | TYPE A21 |  | EC50 |  | 0.0001 µg/mL
CN1CCN(c2c(F)cc3c(=O)c(C(=O)O)cn4c3c2SCC4CF)CC1 |  | Haemophilus influenzae | 44 strains |  | MIC50 |  | 0.12 µg/mL
NC(=O)O[C@@H]1[C@@H](O)[C@H](O)[C@H](NC(=O)[C@@H]2CCC(N)=N2)[C@H](O)[C@H]1O[C@@H]1O[C@H](CO)[C@@H](O[C@H]2O[C@H](CO)[C@@H](O)[C@H](O)[C@H]2NC(=O)[C@@H](N)CCCN=C(N)N)[C@H](O)[C@@H]1O | HeLa | Herpes simplex virus 1 | KOS | cytopathic effect | EC50 |  | >200 µg/mL
O=C1C(=O)c2ccccc2C(O)=C1C1CCC(c2ccc(Cl)cc2)CC1 | MRC-5 fibroblasts | Encephalitozoon cuniculi |  | cytopathic effect | inhibition | 0.2 µg/mL | 0%
NCC(O)c1ccc(O)c(O)c1 | HeLa | Herpes simplex virus 1 | KOS | cytopathic effect | EC50 |  | >200 µg/mL
CC[C@H]1OC(=O)[C@H](C)[C@@H](O[C@H]2C[C@@](C)(OC)[C@@H](O)[C@H](C)O2)[C@H](C)[C@@H](O[C@@H]2O[C@H](C)C[C@H](N(C)C)[C@H]2O)[C@](C)(O)C[C@@H](C)CN(C)[C@H](C)[C@@H](O)[C@]1(C)O | MRC-5 fibroblasts | Encephalitozoon cuniculi |  | cytopathic effect | EC50 |  | 200 µg/mL
COC1=CC(=O)N(C(=O)C2CSC(C(CO)NC(=O)c3csc(C=NO)n3)=N2)C1 | HeLa | Herpes simplex virus 1 | KOS | cytopathic effect | EC50 |  | >200 µg/mL
Nc1ncnc2c1ncn2Cc1c(F)cccc1Cl | MRC-5 fibroblasts | Encephalitozoon cuniculi |  | cytopathic effect | inhibition | 15 µg/mL | 29%

Again, the opening 4 rows:

SMILES,cell line,agent,strain,method,measure,dose,result
CCCCC/C=C\C/C=C\C/C=C\C/C=C\CCCC(=O)O,HeLa,Herpes simplex virus 1,KOS,cytopathic effect,EC50,,>200 µg/mL
C#Cc1c(C(N)=O)ncn1[C@@H]1O[C@H](CO)[C@@H](O)[C@H]1O,HeLa,Respiratory syncytial virus,TYPE 3/FM-58-8,plaque count,EC50,,0.09 µg/mL
Nc1ccc(S(=O)(=O)Nc2ncccn2)cc1,MRC-5 fibroblasts,Encephalitozoon cuniculi,,cytopathic effect,EC50,,>50 µg/mL
CC(=O)OC1C=COC=C2C[C@@]34SC(=S)S[C@]5(CC6=COC=CC(OC(C)=O)C6N5C3=O)C(=O)N4C21,HeLa,Coxsackie virus,TYPE A21,,EC50,,18 µg/mL

A number after MIC or MFC names an inhibition level or a share of isolates. Zones are inhibition diameters on agar. Blank or dashed fields: not listed here. Percent inhibition refers to the dose given; in toxicity tests it is the harm to the cells. ECn is the concentration giving n% inhibition of infection, replication or growth.